Data on one sequence can be found in patent US20240175010.

The target in this data set is T1, Tn5 transposase (bead-linked transposomes) (UniProt Q46731).
T1 sequence (looked up, limits assumed): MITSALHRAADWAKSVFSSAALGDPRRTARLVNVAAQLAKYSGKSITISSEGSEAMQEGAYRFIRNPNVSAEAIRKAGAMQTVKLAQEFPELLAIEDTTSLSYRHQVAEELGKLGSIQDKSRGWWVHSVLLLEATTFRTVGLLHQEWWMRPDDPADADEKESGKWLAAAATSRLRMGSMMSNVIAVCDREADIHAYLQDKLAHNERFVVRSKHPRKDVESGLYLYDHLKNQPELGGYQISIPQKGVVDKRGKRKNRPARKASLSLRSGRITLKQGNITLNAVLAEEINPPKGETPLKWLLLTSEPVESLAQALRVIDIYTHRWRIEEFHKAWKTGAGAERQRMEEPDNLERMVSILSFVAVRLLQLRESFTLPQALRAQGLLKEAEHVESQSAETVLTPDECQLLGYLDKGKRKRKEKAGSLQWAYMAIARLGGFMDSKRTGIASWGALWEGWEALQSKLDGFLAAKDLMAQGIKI
The experiment in a line: activity assay. To be noted: inosine at position 19, NTS 5'-phosphate, 3'-biotin [19 (inosine, parent G, transferred strand), non-transferred strand 5'-phosphate, BLT activity higher than position 16, highest performance, purified recombinant protein, protein details: Illumina, letters built from the parent sequence and the stated change, variant of wild-type mosaic end.

The exact form of at least one protein or probe is not confirmed. Where a protein sequence is shown, tags need not be part of it.

For “AGATGTGTATAAGAGACAG (double strand) [I19 ME]”, the “activity on this sequence” value is given as “active”.
